Source: PMC10331576 (2023)

Molecular target: COVID-2019-Spike-328-585 (RBD) (SARS-CoV-2)
Test: BLI

B1: human CLEC2.Fc fusion protein (Fc fusion)
chain: SVMQRNYLQGENENRTGTLQQLAKRFCQYVVKQSELKGTFKGHKCSPCDTNWRYYGDSCYGFFRHNLTWEESKQYCTDMNATLLKIDNRNIVEYIKARTHLIRWVGLSRQKSNEVWKWEDGSVISENMFEFLEDGKGNMNCAYFHNGKMHPTFCENKHYLMCERKAGMTKVDQLP
  koff: 0.000574 s⁻¹
